This data set has as its target T1, Tn5 transposase (UniProt Q46731).
T1 sequence (looked up, limits assumed): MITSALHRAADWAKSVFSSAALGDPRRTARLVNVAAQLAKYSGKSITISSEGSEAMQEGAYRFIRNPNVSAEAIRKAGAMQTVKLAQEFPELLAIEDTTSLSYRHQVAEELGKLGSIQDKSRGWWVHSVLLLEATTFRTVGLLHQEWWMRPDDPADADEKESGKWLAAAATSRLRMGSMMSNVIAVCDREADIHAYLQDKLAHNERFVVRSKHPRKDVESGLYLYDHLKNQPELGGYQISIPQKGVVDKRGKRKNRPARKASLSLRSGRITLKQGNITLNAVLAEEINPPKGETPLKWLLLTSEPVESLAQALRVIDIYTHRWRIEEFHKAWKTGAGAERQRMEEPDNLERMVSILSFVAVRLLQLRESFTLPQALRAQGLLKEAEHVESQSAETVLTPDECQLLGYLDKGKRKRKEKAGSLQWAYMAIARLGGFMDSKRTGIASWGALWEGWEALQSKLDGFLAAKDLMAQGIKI
Description: activity assay. The note with it: 5'-phosphate and 3' inverted dT on ME' strand; pUC19 tagmentation with sequenced library; pooled result over i7 adapters; 2.5 mM MgCl2, TAPS pH 8.5, 55 C; purified recombinant protein.

Construct, isoform or probe ends are uncertain for at least one entry. Where a protein sequence is shown, tags need not be part of it.

Turning to “CAAGCAGAAGACGGCATACGAGATGAGTTAGTTGGTCTCGTGGGCTCGGAGATGTGTATAAGAGACAG / CTGTCTCTTATACACATCT [i7 adapter / ME']”, the “activity on this sequence” value was “active”.

These data come from US20250034557.
